# Results of single-concentration screens

Source: ChEMBL document CHEMBL3988442, “University of Dundee, Small-Polar-MMV Screening Library” (2021).

Results are given as percent effect. The controls that fix the scale are not given in the record; negative values are as filed. This is part of a subset picked to be rich in strong results. A dash means the value is not listed here; it may have been measured.

A: 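Growth of Mycobacterium tuberculosis over 4 days (cholesterol / DPPC medium with tyloxapol); the read-out is not stated. Tested at 500 µM. Direction is inferred from retests: higher values go with more growth inhibition. Of about 18,000 compounds tested this way, about 900 (5%) reached 50% or more in at least one test.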
B: 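Phenotypic screen: M. tuberculosis growth, glucose 7H9 medium, 3 days; the read-out is not stated. Compounds at 500 µM. The record gives no direction; compounds that gave an IC50 in retests scored well above the rest, so higher reads as more growth inhibition. Size under these conditions: about 18,000 compounds, about 1,400 of them at 50% or above in at least one test.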

| compound | A | B |
|---|---|---|
| `O=C(CC1(O)CCCCC1)NCCNC(=O)C1CC1` | - | -3.829 |
| `CN1CCCN(C(=O)COc2ccc(Br)cc2)CC1` | - | 25.22 |
| `CC(C)N1CCCC(N2CCNCC2)C1=O` (stereo not drawn) | -7.77 | - |
| `Cn1nnnc1SCCC(=O)Nc1ccc(F)cc1` | 3.008 | 1.469 |
| `Cn1nc(C(F)(F)F)c(Cl)c1C(=O)N[C@@H]1CCNC1` | - | 52.01 |
| `CC1(C)C[C@@H]1C(=O)Nc1cnccc1N1CCOCC1` | -0.4257 | - |
| `CC(C)(C)c1noc(CN2CCC(CO)CC2)n1` | - | 29.86 |
| `CC(=O)c1cccc(OCC(=O)NC2CCCC2)c1` | 51.92 | 76.77 |
| `Cn1cc(NC(=O)C(C)(C)C)cc(Br)c1=O` | -9.415 | - |
| `CC(C)N(C)C(=O)C1CCCNC1` (stereo not drawn) | - | -8.093 |
| `CCN(CC)C(=O)c1cccc(C(=O)N(CC)CC)c1` | - | 10.09 |
| `OCC(F)(F)CNCc1cccc(-n2cccn2)c1` | 19.43 | - |
| `CC[C@H](C)[C@H](N)C(=O)NCCCc1ccncc1` | - | 12.63 |
| `Cc1cnc(NC(=O)CCn2cncn2)s1` | - | -4.682 |
| `N[C@@H]1C[C@H]1c1c(F)cccc1F` | - | 55.68 |
| `CC(O)c1ccc2c(c1)CC(=O)N2` (stereo not drawn) | 2.155 | 5.947 |
| `Cc1ccc(C(C)NC(=O)c2cnccn2)o1` (stereo not drawn) | - | 4.074 |
| `CC(O)CCN(C)c1nccnc1C#N` (stereo not drawn) | - | -0.03189 |
| `COc1ccc(CCN)c(Cl)c1OC` | 16.2 | 54.79 |
| `CCN(C(=O)c1cccnc1SC)[C@H]1COC[C@@H]1O` | 7.571 | - |
| `Nc1nccnc1C(=O)NCCCN1CCCC1=O` | - | 15.15 |
| `Cc1nonc1CC(=O)N(C)CC1CCCCO1` (stereo not drawn) | - | 17.3 |
| `c1cc(NCC2CCCO2)ccn1` (stereo not drawn) | 8.56 | 9.804 |
| `CCS(=O)(=O)N(C)CCCNc1cc(C)ccn1` | 7.125 | 27.22 |
| `NC(=O)C1CCN(CC(=O)Nc2cccc(F)c2)CC1` | 10.8 | 15.01 |
| `c1n[nH]c2c1CNC2` | - | 1.962 |
| `COCCC(=O)Nc1cc(OC)ccn1` | -17.86 | -10.65 |
| `NCCc1cnc2ccccc2c1` | - | 22.93 |
| `CN1CCCN(C(=O)CC(C)(C)C)CC1` | - | -5.123 |
| `O=c1c2ccccc2nnn1CN1CCCSCC1` | - | -2.218 |
| `N[C@H]1CCN(S(=O)(=O)c2ccccc2)C1` | 0.3448 | 5.194 |
| `COCCc1ccc2oc(N)nc2c1` | - | 6.643 |
| `COCCc1noc(-c2cnsn2)n1` | -9.854 | -7.139 |
| `CCN(C)c1ccc(CO)cc1` | - | -3.577 |
| `CNCC(O)c1cccnc1` (stereo not drawn) | - | -2.347 |
| `COc1ncccc1C(=O)NC(C)Cn1cccn1` (stereo not drawn) | -9.672 | 8.297 |
| `CN(C)c1nccc(CNc2ccc(C#N)nc2)n1` | 63.11 | 59.65 |
| `COc1ccc(C)cc1CCN` | - | 58.23 |
| `CCC(C#N)NC(=O)c1cnc(OC(C)C)c(Cl)c1` (stereo not drawn) | 86.73 | 78.4 |
| `O=C(NCc1c[nH]c2ncccc12)C1CCC1` | - | 13.6 |
| `CN(CCO)S(=O)(=O)N1CCNCC1` | - | 5.417 |
| `COc1cc(CNC(=O)C(C)OCC(C)C)ccn1` (stereo not drawn) | 50.65 | 52.14 |
| `OC[C@@H](Cc1ccccc1)NC1CCCOC1` (stereo partly drawn) | 3.828 | - |
| `CN(C)CC(=O)Nc1ccc(Br)cn1` | - | 30.01 |
| `Cc1cc(F)ccc1S(=O)(=O)N1CCC(O)CC1` | 4.895 | - |
| `CN(C)Cc1nnc(-c2ccccc2)o1` | - | 42.9 |
| `O=C(NCC1CC1)c1cccc2nn[nH]c12` | 81.76 | 70.94 |
| `CN(C)c1ccc(NC(=O)NC2CCSCC2)nc1` | - | -2.344 |
| `CC1COCCN1S(=O)(=O)N1CCCCC1` (stereo not drawn) | - | 1.569 |
| `CC(C)c1cc(CN)on1` | 26.46 | 31.67 |
| `Cc1cccc(C(=O)NC2CC(N)C2)n1` (stereo not drawn) | - | 7.328 |
| `CCN(CCC(=O)OC)Cc1cccc2c1OCO2` | - | 21.58 |
| `COCCC(=O)N(C)Cc1cccnc1OC` | - | 30.38 |
| `CCC(CO)CC(F)(F)F` (stereo not drawn) | 0.3746 | - |
| `COc1cc(CNc2ncnc3c2cnn3C)ccn1` | 14.2 | - |
| `Cc1nn(CCN(C)c2ccccc2)c(N)c1C#N` | 38.62 | 65.82 |
| `OCCC1CNCCN1CCCc1ccccc1` (stereo not drawn) | - | 33.06 |
| `Cc1cc(C(=O)N(C)C2CCN(C)C2)cc(C)n1` (stereo not drawn) | -5.926 | - |
| `O=C(CSC1=NCCN1)Nc1ccc(Cl)cc1` | - | 25.59 |
| `CCn1cc(NC(=O)NCCCNC(C)=O)cn1` | - | -6.332 |
| `NC(CCN1CCOCC1)c1ccccc1` (stereo not drawn) | -1.973 | 1.079 |
| `CN1CC(NC(=O)COc2cccnc2)CCC1=O` (stereo not drawn) | - | -0.6261 |
| `CC1CNCCN1c1cccc2cnccc12` (stereo not drawn) | - | 44.88 |
| `CNC1CCN(C(=O)Cc2cc(F)ccc2F)CC1` | -0.3232 | - |
| `Cc1ccc(CC(C)N(C)C(=O)CCCN)cc1` (stereo not drawn) | -15.11 | - |
| `CC(CO)S(=O)(=O)Cc1nccn1Cc1ccccc1` (stereo not drawn) | 15.93 | - |
| `O=S(=O)(NCCO)N1CCNCC1` | - | -2.608 |
| `Cc1cc(N)nn1-c1cccc(F)c1` | - | 22.93 |
| `Cc1cnccc1NC(=O)NCCCn1ccnc1` | - | 2.695 |
| `Nc1ccc(C2CCCN2)nn1` (stereo not drawn) | - | 8.13 |
| `COCCN1CCCN(C(=O)c2cc(C)no2)CC1` | - | 7.478 |
| `N#Cc1cc(F)ccc1NC(=O)N1CCC(O)CC1` | 2.13 | - |
| `O=C1N(CC2CCC2)CCCC1(O)CN1CCOCC1` (stereo not drawn) | -10.16 | - |
| `CCN(CC)c1ccc(CN)cc1F` | - | -16.17 |
| `CCNC(=O)N1CCc2cc(OC)c(OC)cc2C1` | 21.25 | 21.85 |
| `CC(N)c1nnc2n1CCCC2` (stereo not drawn) | - | 6.389 |
| `NC1CCCN(Cc2ccccc2)C1` (stereo not drawn) | 51.65 | - |
| `CC(N)C(=O)N(CCN(C)C)Cc1ccccc1F` (stereo not drawn) | - | 17.63 |
| `O=C1CN(CC(=O)Nc2cccc(Cl)c2Cl)CCN1` | -10.39 | - |

For reference, 10 entries once more:

compound	A	B
O=C1CN(CC(=O)Nc2cccc(Cl)c2Cl)CCN1	-10.39	-
CN(C)c1ccc(NC(=O)NC2CCSCC2)nc1	-	-2.344
CCC(CO)CC(F)(F)F (stereo not drawn)	0.3746	-
NC1CCCN(Cc2ccccc2)C1 (stereo not drawn)	51.65	-
COc1cc(CNc2ncnc3c2cnn3C)ccn1	14.2	-
O=S(=O)(NCCO)N1CCNCC1	-	-2.608
CCN(C)c1ccc(CO)cc1	-	-3.577
NC(=O)C1CCN(CC(=O)Nc2cccc(F)c2)CC1	10.8	15.01
CN(C)c1nccc(CNc2ccc(C#N)nc2)n1	63.11	59.65
CNC1CCN(C(=O)Cc2cc(F)ccc2F)CC1	-0.3232	-